IC50 data for one molecule are collected here from patent US6362165B1, “Hydroxyphenyl derivatives with HIV integrase inhibitory properties” (Pharmacor Inc., priority 1999, dated 2002).

This experiment concerns the target HIV-1 integrase (Human immunodeficiency virus type 1 group M subtype B, UniProt P04585). Briefly: HIV-1 integrase inhibition assay (procedure of Burke et al.; radiolabeled duplex substrate, U5 end of HIV LTR). The note with it: read-out: Anti-integrase activity (IC50) 3,4-dihydroxy derivative; Table 1; 3,4-dihydroxy derivative of the root amino acid, formula Ic. The procedure:
For the purposes of Table 1 (and Table 2) the HIV-1 integrase inhibition assay was carried out following a known procedure (Burke, Jr. T. R. et al., J. Med. Chem. 38, 4171-4178 (1995)). A suitable radiolabeled duplex substrate corresponding to the U5 end of the HIV LTR was used.

Usually IC50 stands for the concentration that gives 50% inhibition.

For the molecule `O=C(N[C@H](Cc1ccc(OCc2ccccc2)cc1)C(=O)NCCc1ccc(O)c(O)c1)c1ccc(O)c(O)c1`, the half-inhibitory concentration (IC50) was 42 µM.
